# DMS reactivity of the HIV-1 5' RNA in monomer and dimer

The measurements come from Ye et al. 2022 (doi:10.1038/s41594-022-00746-2).

RNA: 5' end of the HIV-1 NL4-3 genome, made in vitro. Positions 1-437 read:
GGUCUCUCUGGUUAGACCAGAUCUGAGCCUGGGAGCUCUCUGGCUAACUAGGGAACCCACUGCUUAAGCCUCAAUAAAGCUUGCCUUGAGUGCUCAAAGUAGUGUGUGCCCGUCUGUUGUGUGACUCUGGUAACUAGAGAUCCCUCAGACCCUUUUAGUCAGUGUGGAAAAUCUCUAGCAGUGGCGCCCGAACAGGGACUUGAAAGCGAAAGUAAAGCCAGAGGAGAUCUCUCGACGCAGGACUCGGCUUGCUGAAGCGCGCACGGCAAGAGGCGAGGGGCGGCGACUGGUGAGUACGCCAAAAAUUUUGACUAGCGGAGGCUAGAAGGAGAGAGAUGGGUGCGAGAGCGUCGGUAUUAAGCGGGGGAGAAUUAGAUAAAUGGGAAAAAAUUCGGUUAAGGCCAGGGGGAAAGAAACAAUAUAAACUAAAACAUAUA

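Randomly mutated transcripts starting with one, two or three G (1G, 2G, 3G), capped or uncapped, were folded for 30 min at 37 °C. High salt was 300 mM KCl and 5 mM MgCl2, low salt 40 mM KCl and 0.1 mM MgCl2; monomer and dimer were parted on a native gel. Each band was probed in the gel with DMS (170 mM, 15 min, 37 °C), with ethanol as control, and sequenced.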

Values are winsor-normalised DMS reactivities of A and C; higher means more reactive, usually unpaired. One numbering serves 1G, 2G and 3G. A position is written with its base.

* C93 (domain PolyA) -> 1G uncapped low-salt dimer 0.03; 2G capped low-salt dimer 0.03; 3G uncapped high-salt monomer 0.03
* C173 (domain PBS) -> 1G uncapped low-salt dimer 0.03; 2G capped low-salt dimer 0.03; 3G uncapped high-salt monomer 0.03
* A54 (domain TAR) -> 1G uncapped low-salt dimer 0.25; 2G capped low-salt dimer 0.17; 3G uncapped high-salt monomer 0.15
* A66 (domain PolyA) -> 1G uncapped low-salt dimer 1.13; 2G capped low-salt dimer 1.05; 3G uncapped high-salt monomer 0.83
* A89 (domain PolyA) -> 1G uncapped low-salt dimer 0.33; 2G capped low-salt dimer 0.35; 3G uncapped high-salt monomer 0.78
* A194 (domain PBS) -> 1G uncapped low-salt dimer 0.82; 2G capped low-salt dimer 0.89; 3G uncapped high-salt monomer 1.10
* C393 -> 1G uncapped low-salt dimer 0.54; 2G capped low-salt dimer 0.62; 3G uncapped high-salt monomer 0.58
* A345 -> 1G uncapped low-salt dimer 1.24; 2G capped low-salt dimer 1.24; 3G uncapped high-salt monomer 1.28
* A47 (domain TAR) -> 1G uncapped low-salt dimer 0.32; 2G capped low-salt dimer 0.15; 3G uncapped high-salt monomer 0.12
* A378 -> 1G uncapped low-salt dimer 0.23; 2G capped low-salt dimer 0.21; 3G uncapped high-salt monomer 0.23
* C80 (domain PolyA) -> 1G uncapped low-salt dimer 0.42; 2G capped low-salt dimer 0.36; 3G uncapped high-salt monomer 0.29
* C185 (domain PBS) -> 1G uncapped low-salt dimer 0.37; 2G capped low-salt dimer 0.44; 3G uncapped high-salt monomer 0.50
* A311 -> 1G uncapped low-salt dimer 1.33; 2G capped low-salt dimer 1.26; 3G uncapped high-salt monomer 1.22
* A205 (domain PBS) -> 1G uncapped low-salt dimer 0.34; 2G capped low-salt dimer 0.33; 3G uncapped high-salt monomer 0.33
* A73 (domain PolyA) -> 1G uncapped low-salt dimer 0.03; 2G capped low-salt dimer 0.03; 3G uncapped high-salt monomer 0.04
* A222 (domain antiPAS) -> 1G uncapped low-salt dimer 0.27; 2G capped low-salt dimer 0.29; 3G uncapped high-salt monomer 0.25
* A21 (domain TAR) -> 1G uncapped low-salt dimer 0.57; 2G capped low-salt dimer 0.54; 3G uncapped high-salt monomer 0.59
* A59 (domain PolyA) -> 1G uncapped low-salt dimer 0.28; 2G capped low-salt dimer 0.37; 3G uncapped high-salt monomer 0.84
* A78 (domain PolyA) -> 1G uncapped low-salt dimer 0.64; 2G capped low-salt dimer 0.63; 3G uncapped high-salt monomer 0.90
* A385 -> 1G uncapped low-salt dimer 0.53; 2G capped low-salt dimer 0.52; 3G uncapped high-salt monomer 0.53
* A398 -> 1G uncapped low-salt dimer 0.25; 2G capped low-salt dimer 0.21; 3G uncapped high-salt monomer 0.16
* A124 -> 1G uncapped low-salt dimer 0.85; 2G capped low-salt dimer 0.94; 3G uncapped high-salt monomer 1.40
* A67 (domain PolyA) -> 1G uncapped low-salt dimer 0.55; 2G capped low-salt dimer 0.58; 3G uncapped high-salt monomer 0.96
* A428 -> 1G uncapped low-salt dimer 0.10; 2G capped low-salt dimer 0.10; 3G uncapped high-salt monomer 0.11
* C175 (domain PBS) -> 1G uncapped low-salt dimer 0.03; 2G capped low-salt dimer 0.03; 3G uncapped high-salt monomer 0.03
* C403 -> 1G uncapped low-salt dimer 0.03; 2G capped low-salt dimer 0.03; 3G uncapped high-salt monomer 0.03

Excerpt, the final 2 entries:

position,domain,1G uncapped low-salt dimer,2G capped low-salt dimer,3G uncapped high-salt monomer
C175,PBS,0.03,0.03,0.03
C403,none,0.03,0.03,0.03